Test results taken from US7022736B2, “Enzyme inhibitors” (Istituto Di Ricerche Di Biologia Molecolare P Angeletti SpA, priority 1998, dated 2006).

Protein sequences, listed by entry. Tags and fused reporters are not part of them. Residues count along the entry.
UniProt P26663, 2420-3010 limits assumed: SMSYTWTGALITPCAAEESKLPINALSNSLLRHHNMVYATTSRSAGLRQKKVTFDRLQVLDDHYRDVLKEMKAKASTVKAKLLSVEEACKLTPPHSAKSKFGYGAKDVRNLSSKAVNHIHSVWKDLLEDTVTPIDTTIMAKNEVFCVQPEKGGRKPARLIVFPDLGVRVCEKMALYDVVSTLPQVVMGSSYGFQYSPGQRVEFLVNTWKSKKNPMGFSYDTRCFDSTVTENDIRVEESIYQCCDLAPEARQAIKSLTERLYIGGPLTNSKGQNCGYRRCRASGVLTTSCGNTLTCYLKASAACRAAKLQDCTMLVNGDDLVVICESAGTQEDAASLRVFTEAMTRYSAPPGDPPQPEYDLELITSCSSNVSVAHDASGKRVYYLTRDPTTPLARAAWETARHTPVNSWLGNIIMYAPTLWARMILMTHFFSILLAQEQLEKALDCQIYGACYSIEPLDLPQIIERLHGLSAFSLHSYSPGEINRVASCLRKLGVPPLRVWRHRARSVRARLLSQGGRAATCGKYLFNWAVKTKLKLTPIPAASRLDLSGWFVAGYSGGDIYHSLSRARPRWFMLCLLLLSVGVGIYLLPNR

Columns and labels:
[1] = molecular target: HCV RdRp (NS5B RNA-dependent RNA polymerase) (Hepatitis C virus genotype 1b, UniProt P26663); assay: Inhibition of hepatitis C virus RdRp (poly(A)/oligo(U), [3H]UTP incorporation); assay type: biochemical
Procedure: In initial tests, the compounds were tested to see if they were effective as inhibitors of the RNA-dependent RNA polymerase (RdRp) of hepatitis C virus (HCV). The HCV NS5B protein is the viral RdRp; compounds capable of interfering with the activity of this enzyme are thus expected to block viral replication.
Test for Inhibition of Hepatatis C Virus RdRp
WO96/37619 describes the production of recombinant HCV RdRp from insect cells infected with recombinant baculovirus encoding the enzyme. […] The reference describes a polymerisation assay using poly (A) as a template and oligo (U) as a primer. Incorporation of tritiated UTP is quantified by measuring acid-insoluble radioactivity. The present inventors have employed this assay to screen the various compounds described above as inhibitors of HCV RdRp and other virally encoded polymerases.
Incorporation of radioactive UMP was measured as follows. The standard reaction (100 μl) was carried out in a buffer containing 20 mM tris/HCl pH 7.5, 5 mM MgCl2, 1 mM DTT, 50 mM NaCl, 1 mM EDTA, 2 OU Rnasin (Promega), 0.05% Triton X-100, 1 μCi[^3H] UTP (40 Ci/mmol,NEN), 10 μM UTP and 10 μg/ml poly (A). Oligo (U)12 (1 μg/ml, Genset) was added as a primer. The final NSSB enzyme concentration was 20 nM. After 1 hour incubation at 22° C. the reaction was stopped by adding 100 μl of 20% TCA and applying samples to DE81 filters. The filters were washed thoroughly with 5% TCA containing 1M Na2HPO4/NaH2PO4, pH 7.0, rinsed with water and then ethanol, air dried, and the filter-bound radioactivity was measured in the scintillation counter. By carrying out the reaction in the presence of various concentrations of each of the compounds set out above it was possible to determine IC50 values for each compound with the formula: % residual activity=100/(1+[I]/IC50)^s where [I] is the inhibitor concentration and “s” is the slope of the inhibition curve. Test for Inhibition of Hepatitis B Virus Polymerase

[2] = molecular target: reverse transcriptase of HIV (HIV-1 RT) (Human immunodeficiency virus type 1 group M subtype B, UniProt P03366); assay: Inhibition of HIV-1 reverse transcriptase ([3H]dTTP incorporation); details: read-out: HIV (IC50); Tables IXa-IXc; unit inferred; NA=not active as an inhibitor
Procedure: Test for Inhibition of Human Immunodeficiency Virus-1 Reverse Transcriptase
Analogous assays employed the reverse transcriptase of HIV (HIV -1RT) from Boehringer Mannhium.
Incorporation of radioactive dTTP was measured as follows. The standard reaction (100 μl) was carried out in a buffer containing 50 mM tris/HCl pH 8.2, 2.5 mM MgCl 2, 1 mM DTT, 80 mM KCl, 5 mM EGTA, 0.05% Triton X-100, 1 μCi[3H] dTTP (40 Ci/mmol, NEN), 10 μM […] and 10 μg/ml poly(A)/dT (from Pharmacia). The final HIV-1RT(enzyme concentration was 1 nM. After 1 hour incubation at 37° C. the reaction was stopped by adding 100 μl of 20% TCA and applying samples to DE81 filters. The filters were processed and IC50 values calculated as described above.

[3] = read-out: IC 50 (μM), HCV-polymerase, Tables I-VIII, 20 nM NS5B, 1 hour at 22° C.
[4] = read-out: HCV (IC50), Tables IXa-IXc, unit inferred

Compound | IC50 [1, 3] | other results
Cc1coc(C)c1C(=O)CC(=O)C(=O)O | 47.5 µM | –
N#Cc1cc(F)ccc1COc1cccc(C(=O)CC(=O)C(=O)O)c1 | 0.6 µM | IC50 [1, 4]: 0.6 µM; IC50 [2]: 50 µM
N#CCCCOc1cc(O)cc(C(=O)CC(=O)C(=O)O)c1 | 0.9 µM | –
O=C(O)C(=O)CC(=O)c1ccc(-c2cc(C(F)(F)F)cc(C(F)(F)F)c2)o1 | – | IC50 [1, 4]: > 100 µM; IC50 [2]: 16 µM
N#CCCCCOc1ccccc1C(=O)CC(=O)C(=O)O | 7.8 µM | –
Cc1c(Cc2ccccc2)cccc1C(=O)CC(=O)C(=O)O | > 50 µM | –
C=CCc1cccc(C(=O)CC(=O)C(=O)O)c1OCCCC#N | 18 µM | –
Cc1cc(C(=O)CC(=O)C(=O)O)c(C)s1 | 27 µM | –
COc1cc(Cc2cc3ccccc3o2)cc(C(=O)CC(=O)C(=O)O)c1 | 20 µM | –
O=C(O)C(=O)CC(=O)c1cc(O)cc(O)c1 | 1.3 µM | –
CN(C)c1cccc2c(S(=O)(=O)N3CCCC(Cc4ccc(Cl)cc4)(C(=O)CC(=O)C(=O)O)C3)cccc12 (centres unmarked) | – | IC50 ([1]; read-out: IC 50 (μM), HCV-polymerase, Tables I-VIII, 20 nM NS5B, 1 hour at 22° C., tested form: dimethylamino group drawn protonated (N+)): 55 µM

Where two headings read alike, the source gives them in different places.
